A mixed list of measured activities; the numbers were collected in NIAID ChemDB.

Shared fields: growth or infection tests; agent: Hepatitis C virus; method: replicon; read-out: EC50

ECn: concentration that inhibits the pathogen or its effect by n%. Neighbouring rows are from separate reports. An empty or dashed field is not shown.

structure,cells,strain or isolate,result
Nc1ncnc2c1c(-c1ccccc1)cn2[C@@H]1O[C@H](CO)[C@@H](O)[C@H]1F,HCV replicon,2a,20.73 µM
O=C(NCc1ccc([N+](=O)[O-])cc1)c1nc2ccccc2c(=O)n1O,Ava5,1b,50.8 µM
Nc1ncnc2c1c(-c1ccoc1)cn2[C@H]1O[C@H](CO)[C@@H](O)C1(F)F,HCV replicon,2a,14.45 µM
COc1ccc(O)c(-c2ccn(-c3nccc(OC)c3OC)n2)c1,Huh7,-,>32 µM
C=CC1C[C@]1(NC(=O)[C@@H]1C[C@@H](Oc2cc(-c3ccccc3)nc3cc(OC)ccc23)CN1C(=O)[C@@H](NC(=O)NC(C)(C)C)C(C)(C)C)C(=O)O,Huh7,1b,<0.5 µM
Nc1ncnc2c1c(-c1ccco1)cn2[C@@H]1O[C@H](CO)[C@@H](O)[C@H]1F,HCV replicon,1b,1.85 µM
CCNC(=O)c1cc(-c2ccc(OC)cc2)nn1-c1ncccc1C(F)(F)F,Huh7,-,>32 µM
CNC(=O)c1c(-c2ccccc2)oc2ccc(OCc3ccccc3-c3ccccc3)cc12,Huh7,-,<30 µM
COC(=O)c1cnccc1Nc1nc(-c2cc(Cl)ccc2F)nc2nc(N(C)Cc3ccccc3)ccc12,Huh7,-,>10 µM
O=C(NCc1ccc(Cl)c(Cl)c1)c1nc2ccccc2c(=O)n1O,Ava5,1b,33.8 µM
CNC(=O)c1c(-c2ccc(F)cc2)oc2cc(N(CS(C)(=O)=O)C(=O)NC)c(OC)cc12,Huh7,-,<1 µM
O=C(NCc1ccccc1)c1nc2ccccc2c(=O)n1O,Ava5,1b,59.4 µM
CNC(=O)c1c(-c2ccc(F)cc2)oc2cc(-c3c(COC)noc3C3CC3)c(OC)cc12,Huh7,-,<1 µM
Clc1cccc(-c2nc(Nc3ccncc3)c3ccc(NCCN4CCCCC4)nc3n2)c1,Huh7,-,1.3 µM
COc1cc(O)c(-c2noc(-c3ncccc3C)n2)c(OC)c1,Huh7,-,0.7 µM
C=C[C@@H]1C[C@]1(NC(=O)[C@@H]1C[C@@H](Oc2cc(-c3ccccc3)nc3cc(OC)ccc23)CN1C(=O)[C@@H](NC(=O)CC1C2CC1C2)C(C)(C)C)C(=O)NS(=O)(=O)C1CC1,Huh7,1b,<0.05 µM
O=[N+]([O-])c1ccccc1-n1nccc1-c1ccccc1O,Huh7,-,5.3 µM
COc1ccc2c(O[C@@H]3C[C@@H](C(=O)NC4(C(=O)NS(=O)(=O)C5CC5)CCC4)N(C(=O)[C@@H](NC(=O)OC(C)(C)C)C(C)(C)C)C3)cc(-c3ccccc3)nc2c1,Huh7,1b,<0.5 µM
CNC(=O)c1c(-c2ccc(OC)cc2)oc2ccc(OC)cc12,Huh7,-,<10 µM
O=C(NCc1cccc(Cl)c1)c1nc2ccccc2c(=O)n1O,Ava5,1b,29.6 µM
Nc1ncnc2c1c(I)cn2[C@H]1O[C@H](CO)[C@@H](O)C1(F)F,HCV replicon,2a,4.67 µM
C=C[C@@H]1C[C@]1(NC(=O)[C@@H]1C[C@@H](Oc2cc(-c3ccccc3)nc3cc(OC)ccc23)CN1C(=O)[C@@H](NC(=O)OC(C)(C)C)C(C)(C)C)C(=O)NS(=O)(=O)C(C)C,Huh7,1b,<0.5 µM
Fc1ccc(Br)cc1-c1nc(Nc2ccncc2)c2cccnc2n1,Huh7,-,0.23 µM
C=C[C@@H]1C[C@]1(NC(=O)[C@@H]1C[C@@H](Oc2cc(-c3ccccc3)nc3cc(OC)ccc23)CN1C(=O)[C@@H](NC(=O)c1ccco1)C(C)(C)C)C(=O)NS(=O)(=O)C1CC1,Huh7,1b,<0.5 µM
Nc1ncnc2c1c(-c1ccsc1)cn2[C@@H]1O[C@H](CO)[C@@H](O)C1(F)F,HCV replicon,1b,5.74 µM
Cc1cccnc1-c1nc(-c2cc(NC(=O)OC(C)(C)C)ccc2O)no1,Huh7,-,4.7 µM
Nc1ncnc2c1c(-c1ccccc1)cn2[C@H]1O[C@H](CO)[C@@H](O)C1(F)F,HCV replicon,1a,22.73 µM
Fc1ccc(Cl)cc1-c1nc(Nc2ccncc2C(F)(F)F)c2cccnc2n1,Huh7,-,25 µM
Cc1cc(O)c(-c2c(C)cnn2-c2ccccc2C)cc1C,Huh7,-,>19 µM
Nc1ncnc2c1c(-c1ccoc1)cn2[C@@H]1O[C@H](CO)[C@@H](O)[C@H]1F,HCV replicon,2a,14.17 µM
C=C[C@@H]1C[C@]1(NC(=O)[C@@H]1C[C@@H](Oc2cc(-c3ccccc3)nc3cc(OC)ccc23)CN1C(=O)[C@@H](NC(=O)OC(C)(C)C)C(C)(C)C)C(=O)NS(=O)(=O)c1ccccc1Cl,Huh7,1b,<0.5 µM
CNC(=O)c1c(-c2ccc(F)cc2)oc2cc(C3CCN(S(C)(=O)=O)C3)c(OC)cc12,Huh7,-,<1 µM
COc1ccccc1-c1ccnn1-c1ccccc1[N+](=O)[O-],Huh7,-,3 µM
CNC(=O)c1c(-c2ccc(F)cc2)oc2cc(-c3noc(C)n3)c(OC(C)C)cc12,Huh7,-,<1 µM
CNC(=O)c1cnccc1Nc1nc(-c2cc(Cl)ccc2F)nc2nc(N)ccc12,Huh7,-,>10 µM
CNC(=O)c1c(-c2ccccc2)oc2cc(C)c(OC)cc12,Huh7,-,<1 µM
Nc1ncnc2c1c(-c1cccs1)cn2[C@@H]1O[C@H](CO)[C@@H](O)C1(F)F,HCV replicon,2a,4.82 µM
O=C(NCc1ccc(F)cc1)c1nc2ccccc2c(=O)n1O,Ava5,1b,54.4 µM

The first 4 rows once more:

structure	cells	strain or isolate	result
Nc1ncnc2c1c(-c1ccccc1)cn2[C@@H]1O[C@H](CO)[C@@H](O)[C@H]1F	HCV replicon	2a	20.73 µM
O=C(NCc1ccc([N+](=O)[O-])cc1)c1nc2ccccc2c(=O)n1O	Ava5	1b	50.8 µM
Nc1ncnc2c1c(-c1ccoc1)cn2[C@H]1O[C@H](CO)[C@@H](O)C1(F)F	HCV replicon	2a	14.45 µM
COc1ccc(O)c(-c2ccn(-c3nccc(OC)c3OC)n2)c1	Huh7	-	>32 µM